Each structure is given as a SMILES string. Like-named read-outs stand apart in the source and are kept apart here.

The chains behind the UniProt entries cited, without tags or fusion partners. Residues count along the entry.
UniProt J9W473, 1-851: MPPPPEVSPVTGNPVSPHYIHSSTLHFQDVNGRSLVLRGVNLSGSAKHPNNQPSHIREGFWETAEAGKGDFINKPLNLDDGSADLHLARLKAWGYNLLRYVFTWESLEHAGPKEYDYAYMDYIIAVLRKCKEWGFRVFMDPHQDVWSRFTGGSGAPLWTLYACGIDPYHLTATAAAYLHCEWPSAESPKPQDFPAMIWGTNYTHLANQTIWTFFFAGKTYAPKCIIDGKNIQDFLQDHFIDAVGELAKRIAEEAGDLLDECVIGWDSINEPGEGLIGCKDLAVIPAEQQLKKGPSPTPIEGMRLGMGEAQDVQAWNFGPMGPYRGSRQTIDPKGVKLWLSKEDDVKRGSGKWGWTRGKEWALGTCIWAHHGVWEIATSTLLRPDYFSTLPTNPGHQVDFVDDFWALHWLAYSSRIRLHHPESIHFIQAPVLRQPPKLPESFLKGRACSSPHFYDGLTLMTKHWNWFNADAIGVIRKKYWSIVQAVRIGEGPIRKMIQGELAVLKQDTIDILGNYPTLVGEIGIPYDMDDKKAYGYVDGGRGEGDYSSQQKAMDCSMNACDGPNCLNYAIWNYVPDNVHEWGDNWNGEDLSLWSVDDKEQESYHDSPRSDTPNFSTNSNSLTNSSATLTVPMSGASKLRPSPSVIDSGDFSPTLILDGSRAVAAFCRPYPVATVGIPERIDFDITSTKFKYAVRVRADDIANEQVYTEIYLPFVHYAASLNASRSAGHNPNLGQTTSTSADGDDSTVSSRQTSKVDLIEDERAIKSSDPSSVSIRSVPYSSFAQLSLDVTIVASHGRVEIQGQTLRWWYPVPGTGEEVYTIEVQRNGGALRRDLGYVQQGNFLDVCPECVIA
UniProt Q4WXA7, 1-759: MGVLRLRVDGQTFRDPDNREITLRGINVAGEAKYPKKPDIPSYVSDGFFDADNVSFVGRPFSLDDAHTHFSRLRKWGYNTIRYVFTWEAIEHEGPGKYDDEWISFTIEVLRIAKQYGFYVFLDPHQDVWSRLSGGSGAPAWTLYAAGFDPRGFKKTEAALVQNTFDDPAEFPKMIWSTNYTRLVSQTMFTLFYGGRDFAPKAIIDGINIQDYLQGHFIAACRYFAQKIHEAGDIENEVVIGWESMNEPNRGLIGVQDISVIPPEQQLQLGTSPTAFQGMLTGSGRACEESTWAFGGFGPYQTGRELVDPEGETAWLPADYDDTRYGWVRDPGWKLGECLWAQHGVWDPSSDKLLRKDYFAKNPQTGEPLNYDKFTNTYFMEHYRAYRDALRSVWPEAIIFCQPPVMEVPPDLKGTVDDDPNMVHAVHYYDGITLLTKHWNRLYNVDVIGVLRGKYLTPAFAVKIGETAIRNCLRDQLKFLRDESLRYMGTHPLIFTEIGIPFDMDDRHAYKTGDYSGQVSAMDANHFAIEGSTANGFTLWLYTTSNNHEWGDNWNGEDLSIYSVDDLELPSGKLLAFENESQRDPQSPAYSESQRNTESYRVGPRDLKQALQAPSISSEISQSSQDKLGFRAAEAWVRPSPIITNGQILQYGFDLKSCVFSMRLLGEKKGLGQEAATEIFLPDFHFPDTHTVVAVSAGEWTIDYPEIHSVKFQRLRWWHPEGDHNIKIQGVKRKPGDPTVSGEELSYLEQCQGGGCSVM

For test [1], the target named is Sgl1 (Cryptococcus neoformans, UniProt J9W473). As to the kind of experiment: Cn Sgl1 inhibition, HTS with resorufin β-D-glucopyranoside / IC50 of hits. An excerpt: (§1) The Cn Sgl1 and Af SglA proteins in E. coli were cloned and overexpressed for two purposes: a) to produce large quantity of recombinant protein for a high-throughput screening (HTS) assay and b) to produce crystal structure of the enzymes.
(§2) A) To set up the HTS assay, the fluorogenic glucosidase substrate resorufin β-D-glucopyranoside was used. This substrate is ideal because it has been successfully implemented in HTS assays for other glucosidases (Urban D J, et al. 2008). Initial parameters were established to ensure linearity vs. time and [enzyme]. KM and Vmax were determined to ensure we screen below the KM for competitive inhibitors. Other critical factors were assessed, including enzyme stability upon long-term storage (Pereira de Sa N, et al. 2021). Lastly, the Z-score was calculated to assess the robustness of our assay and found to be 0.94, which is an outstanding score.
(§3) Hit 1, 4-(hydroxymethyl)-1-[2-(3-methoxy-phenyl)-1,3-thiazol-5-yl]methylpiperidin-4-ol (ChemBridge ID #59928901); Hit 9, N-[(3R,5S)-5-(hydroxymethyl)-1-methylpyrrolidin-3-yl]-2-(3-oxo-3,4-dihydro-2H-1,4-benzoxazin-6-yl)acetamide (Chembridge ID #23645796); and Hit 15 (2S,4R)-4-[(6-isopropyl-1-methyl-1H-pyrazolo[3,4-d]pyrimidin-4-yl)amino]-1-methyl-2-pyrrolidinyl methanol (ChemBridge ID #86711567).

Test [2] concerns the target SglA (Aspergillus fumigatus, UniProt Q4WXA7). As to the kind of experiment: Af SglA inhibition, HTS with resorufin β-D-glucopyranoside / IC50 of hits.
Description: as §1, §2, §3

Test [3] has as its target Cn Sgl1 (Cryptococcus neoformans, UniProt J9W473). As to the kind of experiment: Structural (co-crystal) analysis of inhibitor binding to Sgl1. As to conditions: co-crystal structure / structural analysis. An excerpt: FIG. 8. Structural analysis of Cn Sgl1 with its substrate and with its inhibitor. […] The active site is enclosed in a pocket. B) Interactions of ergosterol-3-β-glucoside with the Sgl1 active site. Glucose interacts with Lys 47 and Trp 570. The sterol component makes hydrophobic interaction with Glu 270 and Leu 431. C) Hit 1 (green) binds to Glu 270 and Trp 570. All other amino acids in the active site are shown.
Cn Sgl1 structure at 1.9 Å resolution (FIG. 8) and AfSglA structure at 2.0 Å resolution were solved (Pereira de Sa N, et al. 2022). […] In fact, Cn WT cells treated with Hit 9 accumulate more SGs than those treated with Hit 1 or Hit 15 (Pereira de Sa N, et al. 2021). Thus, Hit 9 was selected as the parent structure for generating Hit 9 derivatives against Cn Sgl1, such as SS-103 (see below). Similarly, Hit b (FIG. 9) or Hit c binds in the active site of SglA, thus preventing the binding of SGs to SglA. These structural studies have been published (Pereira de Sa N, et al. 2021 and 2022).

Test [4] has as its system A. fumigatus. As to the kind of experiment: Sterylglucoside (ergosterol 3β-D-glucoside) accumulation in A. fumigatus cells. As to conditions: versus Af Δsgla. The procedure:
Wild-type Af ΔKu80pyrG1a and the mutant Δsgla strain were cultivated in yeast extract-glucose medium (YAG) (2% [wt/vol] glucose, 0.5% [wt/vol] yeast extract, 1× trace elements, 1× amino acid solution, 2% [wt/vol] bacteriological agar) for 48 h at 37 °C. High-nitrate salts, trace elements, and amino acid solutions were prepared. The medium was supplemented with 1.2 g/L of uracil and uridine (UU), generating YAG+UU medium when the strain ΔKu80pyrG1a was used. After that, the conidial suspension in water was obtained, and a pellet with 1×10^7 conidia was treated in minimal medium broth pH 6.5 (MM or MM+UU) (1% [wt/vol] glucose, 1× high-nitrate salts, 1× trace elements) for 48 h at 37 °C under agitation, with the hits selected, according to the toxicity criteria, at various concentrations. […] After that, the resultant hyphal pellet was used for lipid extraction. Then, the total lipid was extracted, and dried samples were resuspended in 2:1 chloroform-methanol for liquid chromatography-mass spectrometry (LC-MS) analysis. A standard ErgGlc from Avanti Polar Lipids was used as a control for the calibration curve. Data were normalized to the total inorganic phosphate content in the sample.

The subject of test [5] is A. fumigatus. As to the kind of experiment: Mouse model of pulmonary aspergillosis, survival and lung fungal burden. The method, then:
FIG. 6. Hit b prolongs survival of mice infected with Af. A) Mice were infected with 5×10^4 Af conidia. After ~1 h they received an intraperitoneal injection of Hit b 5 mg/Kg or 20 mg/Kg, which they continued daily. n=10 mice in each group. * P<0.01, Hit b 20 mg/Kg versus untreated by Kruskal-Wallis test. B) No fungal DNA was found in lungs treated with Hit b. Graphed data represent the means f SD of the fold changes in 18S fungal rDNA/mouse lung GAPDH. Statistic was determined via two-way ANOVA using Tukey's multiple Comparation Test. *, P<0.001 for Hit b-treated versus untreated. IS, Immunosuppression.
FIG. 7. B7 Prolongs survival of mice infected with Af. A) Mice were infected with 5×10^4 Af conidia. […] Statistic was determined via two-way ANOVA using Tukey's multiple Comparation Test. *, P<0.001 for B7-treated versus untreated. […]
Treatment of WT Af cells with Hit b increases SGs by ~50% compared to the increase generated by the deletion of SglA (Af Δsgla) (data not shown) (Pereira de Sa N, et al. 2023). […] One hour later, they received an intraperitoneal injection of Hit b at 5 mg/kg/day or 20 mg/kg/day and mice survival was monitored. […] The lung fungal burden was assessed by qPCR determination of the concentration of Af 18S rDNA compared to the concentration of mouse lung GAPDH at the time of death for 5 mice untreated, and at day 30 for 5 mice treated with 20 mg/Kg/day of Hit b. […]

Test [6] deals with Af WT. As to the kind of experiment: Hyphal formation / elongation in A. fumigatus. To be noted: Hit b 10 and 100 μM, Hit c 10, 100 and 500 μM; 12 hours for Hit b; versus ΔsglA. The method, then:
FIG. 3. Effect of SglA deletion/inhibition on hyphal formation in A. fumigatus (Af). Deletion of sglA gene in Af (ΔsglAI) dramatically effects hyphal elongation. (B) compared to WT (A). Treatment of Af WT with Hit b for 12 hours. (C) recapitulates the phenotype of Δsgl4. (D) Quantitative analysis of hyphal length of Af WT untreated (Un), Af ΔsglA-Un. and Af WT treated with different concentrations of SglA inhibitors Hit b (10 and 100 μM) or Hit c (10, 100 and 500 μM). […] Black bar in A, B and C, 20 μm. *** in D, P<0.01, by ANOVA.

Test [7] has as its system C. neoformans H99. As to the kind of experiment: Sterylglucoside (ergosterol 3β-D-glucoside) accumulation in C. neoformans cells. As to conditions: versus Cn Δsgl1. The method, then: C. neoformans H99 was cultivated in yeast nitrogen base (YNB) broth for 24 h at 37 °C with shaking. A pellet with 5×10^8 cells was treated during 24 h with all the hits selected, according to the toxicity criteria, in various concentrations. […] After that, the resultant pellets were re-counted and used for lipid extraction. Thenceforth the total lipid was extracted and dried samples were resuspended in chloroform/methanol 2:1 ratio for LC-MS analysis. A standard erg-glc from Avanti Polar Lipids was used as a control for the calibration curve. Data were normalized to the total inorganic phosphate content in the sample.

In test [8] the test system is C. neoformans. As to the kind of experiment: Mouse model of cryptococcosis, lung and brain tissue burden. As to conditions: 10 mg/kg/day intraperitoneally, Hit 1 with fluconazole (F). The method, then: FIG. 5. Hit 1 prevents dissemination of C. neoformans to the brain. CBA/J mice were inoculated with 1×10^6 Cn WT H99. After 6 hours, treatment started intraperitoneally with 10 mg/kg/day of Hit 1 or fluconazole (F). Five mice in each group where euthanized and lung CFUs were analyzed at days 3, 6, 9, and 14 after infection/treatment (A) whereas brain CFU only at day 14 (B). […] One-way ANOVA, Tukey's Multiple Comparison Test. Ns, not significant; *, p<0.05; **, p<0.001, treated versus untreated.
Hit 1 was studied to see whether it would have antifungal activity in the animal model. This was possible even without comprehensive pharmacokinetics (PK) data because these compounds have favorable “druggable” properties. For instance, based on its biophysical properties and on pkCSM software (Pires D E, Blundell T L, et al. 2015), predicted PK and toxicity properties of Hit 1 were highly favorable. Hit 1 was tested in the cryptococcal animal model, whereas Hit b in the Aspergillus animal model. For the cryptococcal model, mice were infected intranasally and 6 hours, later Hit 1 was administered intraperitoneally every day, alone or in combination with fluconazole for 14 days, and lung and brain tissue burden was examined. […] Hit 1 also synergized with fluconazole in decreasing the lung fungal burden (FIG. 5). […]

In test [9] the test system is Sgl1/SglA. As to the kind of experiment: Substrate specificity of sterylglucosidase (biochemical and structural). As to conditions: role: substrate; crystal structures. An excerpt: While working on the characterization of the gene involved in the catabolism of the sphingolipids, CNAG_05607 was discovered as the gene homolog to Cn EGCrP1, which is the glucosylceramidase active at neutral and alkaline pH (shibashi Y et al. 2012). […] In fact, CNAG_05607 from either Cryptococcus neoformans (Cn) (Rella A, et al., 2015), and its homologs from Aspergillus fumigatus (Af) (Pereira de Sa N, et al. 2020), metabolize sterylglucosides (SGs) and not glucosylceramide (GlcCer), as claimed improperly by an early publication which used as a substrate a different, short chain, non-physiological GlcCer (Watanabe T, et al. 2015). […] Thus, CNAG_05607 was renamed sterylglucosidase 1 (Cn Sgl1), the first sterylglucosidase ever isolated from any living organism. (Rella A, et al., 2015).
The short chain non-physiological GlcCer (C6-GlcCer), used in the studies by Watanabe et al. does fit the active site of Sgl1 (Pereira de Sa N, et al. 2021).

The mark [10] stands for this setting: read-out: IC50 against Sgl1, HTS of DiverSet-CL ChemBridge library.
Setting [11] is: read-out: IC50 against SglA, HTS of DiverSet-CL ChemBridge library.

As for `CN1C[C@H](NC(=O)Cc2ccc3c(c2)NC(=O)CO3)C[C@H]1CO`, the IC50 (as a rule, the concentration needed to halve the response being measured) in test [1] (setting [10]) is at most 1 µM; in test [1] (read-out: Sgl1 IC50, Table 1), 0.5 µM; in [2] (read-out: SglA IC50, Table 1), 8 µM. Also, in [3], the “Binding to Sgl1 (structural)” value is recorded as “binds even more strongly to Sgl1 than Hit 1 or Hit 15”.

As to `Cc1[nH]c2ccc(CNc3cc(N)ncn3)cc2c1C`, the IC50 is 4 µM in test [1] (read-out: Sgl1 IC50, Table 1); at most 1 µM in test [2] (setting [11]); 1 µM in [2] (read-out: SglA IC50, Table 1). Besides, the “Increase of SGs in WT Af cells compared to the increase generated by deletion of SglA” value in test [4] is on record as ~ 50%. The same compound came in with a Survival in test [5] (20 mg/kg/day intraperitoneally, started 1 hour after infection) of 50%. In addition, in test [5] (intraperitoneal, 5×10^4 Af conidia), the “Survival of mice infected with Af” value is listed as “prolongs survival of mice infected with Af”.

Take `CC(C)c1nc(N[C@@H]2C[C@@H](CO)N(C)C2)c2cnn(C)c2n1`: the IC50 in [1] (setting [10]) was at most 1 µM; in test [1] (read-out: Sgl1 IC50, Table 1), 1 µM; in [2] (read-out: SglA IC50, Table 1) it was 8 µM.

As for `CC(Cc1ccc2c(c1)OCO2)c1c(-c2ccccc2)ncn1CCO` (centres unmarked), the IC50 is 8 µM in test [1] (read-out: Sgl1 IC50, Table 1); at most 1 µM in test [2] (setting [11]); 2 µM in [2] (read-out: SglA IC50, Table 1). Also, the “Hyphal elongation in Af WT” value in test [6] is “significantly inhibit hyphal elongation in Af WT similarly to ΔsglA”.

Consider `COc1cccc(-c2ncc(CN3CCC(O)(CO)CC3)s2)c1`, for which the IC50 was at most 1 µM in test [1] (setting [10]); 1 µM in test [1] (read-out: Sgl1 IC50, Table 1); 8 µM in test [2] (read-out: SglA IC50, Table 1). For the same compound, the “Increase of SGs in Cn WT cells compared to the increase generated by deletion of Sgl1” value in test [7] is reported as 15-20%. Moreover, the “Lung fungal burden (CFU), cryptococcosis, combination with fluconazole” value in test [8] is reported as “synergized with fluconazole in decreasing the lung fungal burden”.

Take `CCCCCCCCCCCCC/C=C/[C@@H](O)[C@H](CO[C@@H]1O[C@H](CO)[C@@H](O)[C@H](O)[C@H]1O)NC(=O)CCCCC`: the “Fit / interaction with the active site of Sgl1/SglA” value in test [9] is listed as “does fit the active site of Sgl1”.

For the origin of these results see US20260384417A1, “STERYLGLUCOSIDASE INHIBITING COMPOSITIONS AND METHOD OF USING” (published 2026).
